Laboratory results: paper PMC7583907

How the values were obtained:
[1] = biological target: SARS-CoV-2 non-structural protein 10 (nsp10) (SARS-CoV-2) (UniProt P0DTD1); test: SEC
[2] = biological target: SARS-CoV-2 non-structural protein 10 (nsp10) (SARS-CoV-2) (UniProt P0DTD1); test: AUC
[3] = biological target: SARS-CoV-2 non-structural protein 10 (nsp10) (SARS-CoV-2) (UniProt P0DTD1); test: SEC; analytical SEC, Superdex 75 Increase 10/300 GL, 50 mM Tris pH 8.0, 150 mM NaCl, 4 °C; nsp10 concentrated to 55 mg/mL, kept at 4 °C for 20 h, diluted to 3 mg/mL
[4] = biological target: SARS-CoV-2 non-structural protein 10 (nsp10) (SARS-CoV-2) (UniProt P0DTD1); test: SEC; analytical SEC, Superdex 75 Increase 10/300 GL, 50 mM Tris pH 8.0, 150 mM NaCl, 4 °C; nsp10 concentrated to 55 mg/mL, kept at 4 °C for 44 h, diluted to 3 mg/mL

For “SARS-CoV-2 non-structural protein 10 (nsp10) (from UniProt P0DTD1 4264-4385) (domain or fragment)”, the ratio of dimer to monomer (dimer:monomer) [1] was 0.02, the stoichiometry N [1] was 2 and the percent monomer [2] was 74% to 100% and 53% to 68% (2×). The stoichiometry N [2] was 2, the ratio of dimer to monomer (dimer:monomer) [3] was 0.067 and the stoichiometry N [3] was 2. It also gave a ratio of dimer to monomer (dimer:monomer) [4] of 0.1 and a stoichiometry N [4] of 2.

Values joined by “and” are separate entries in the source; they are usually repeats but may differ in a detail not shown here. Equal entries are not always repeated.
